Reference: publication PMC7959488, “Identify potent SARS-CoV-2 main protease inhibitors via accelerated free energy perturbation-based virtual screening of existing drugs” (Proceedings of the National Academy of Sciences of the …, 2020)

Target: SARS-CoV-2 M^pro (Severe acute respiratory syndrome coronavirus 2, UniProt P0DTD1)

## OCCN(CCO)c1nc(N2CCCCC2)c2nc(N(CCO)CCO)nc(N3CCCCC3)c2n1 [DIP, dipyridamole]
Unsigned error |ΔGMM-GBSA − ΔGexp|
  UEMM-GBSA: 24.4 kcal/mol
Unsigned error |ΔGMM-PBSA − ΔGexp|
  UEMM-PBSA: 13.6 kcal/mol
